Experimental data taken from publication PMC3026800, “Mechanism of Inhibition of Enveloped Virus Membrane Fusion by the Antiviral Drug Arbidol” (PLoS ONE, 2011).

Assays:
[1] = Epifluorescence microscopy of giant unilamellar liposomes with Arb
[2] = Surface plasmon resonance binding to immobilized DMPC liposomes (L1 chip); conditions: Arb pulsed onto DMPC liposome-coated chip (about 5000 RU)

Question: For CCOC(=O)c1c(CSc2ccccc2)n(C)c2cc(Br)c(O)c(CN(C)C)c12.Cl [Arb, 1H-indole-3-carboxylic acid, 6-bromo-4-[(dimethylamino)-methyl]-5-hydroxy-1-methyl-2-[(phenylthio)methyl]-, ethyl ester, monohydrochloride], which “Effect on GUV bilayer” value ([1]; 20∶1 Arb-to-lipid ratio) is on record?
Answer: Its value is “major overall membrane reorganization”.

Question: And the “Effect on GUV bilayer” value ([1]; Arb-to-lipid ratios higher than 1∶20)?
Answer: Its value is “membrane inhomogeneities and invaginations appeared”.

Question: And the “Lysis of GUV” value ([1]; any condition, even at the highest ratio)?
Answer: The value was “no lysis or membrane dislocation”.

Question: And the “Effect on GUV bilayer” value ([1]; up to a 1∶20 Arb-to-lipid ratio)?
Answer: The value was “unaffected”.

Question: What about the “SPR signal of Arb on liposome-coated chip” value [2] of the same compound?
Answer: The value was ~600 RU.
